Results published in US9675592B2, “Methods and compositions for bacteria infections” (priority 2013, dated 2017).

By UniProt entry, the sequences of proteins in these tests, tags left out. Where a name states a change or a piece, a line headed by the entry shows the natural chain unless it says otherwise.
UniProt Q81ZH5: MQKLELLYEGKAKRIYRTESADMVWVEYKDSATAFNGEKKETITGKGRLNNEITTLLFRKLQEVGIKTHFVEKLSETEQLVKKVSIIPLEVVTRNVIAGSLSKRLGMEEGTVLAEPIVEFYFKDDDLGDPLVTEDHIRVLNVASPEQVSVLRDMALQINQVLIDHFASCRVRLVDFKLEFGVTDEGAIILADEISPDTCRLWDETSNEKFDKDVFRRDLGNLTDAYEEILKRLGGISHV

Target: PurC (unrelated protein, control) (Bacillus anthracis, UniProt Q81ZH5)
Assay type: binding
Details: read-out: KD PurC (control)

## Cc1cc2c(C(C)C)c(O)c(O)c(C=O)c2c(O)c1-c1c(C)cc2c(C(C)C)c(O)c(O)c(C=O)c2c1O [Gos, Gossypol, reference compound]
  Kd: > 100 µM
